Anti-infective test results gathered from many reports (values: NIAID ChemDB through PubChem).

Common to all: growth or infection tests; species: Cryptosporidium parvum

Blank or dashed fields: not listed here. Lines come from different laboratories, so protocols vary. Inhibition is in % at the dose shown (toxicity tests: loss of growth or viability). ECn is the concentration giving n% inhibition of infection, replication or growth.

compound,cell line,read by,dose,read-out,strain or isolate,value
N/C(=N\N=C\c1ccc(Cl)cc1)N/N=C/c1ccc(Cl)cc1,L929,,0.8 µg/mL,inhibition,Human isolate,10.05%
COC(=O)c1cc([N+](=O)[O-])c(N2CCOCC2)c([N+](=O)[O-])c1,MDCK cells,ELISA / luminescence,,EC50,,66.9 µM
O=S(=O)(F)Cc1ccccc1,,,3000 µM,inhibition,,60%
CC(C)(C)NC(=O)[C@@H]1CN(Cc2cccnc2)CCN1C[C@@H](O)C[C@@H](Cc1ccccc1)C(=O)N[C@H]1c2ccccc2C[C@H]1O,HCT-8,,200 µg/mL,inhibition,,50%
NS(=O)(=O)c1cc([N+](=O)[O-])c(Nc2ccccc2)c([N+](=O)[O-])c1,MDCK cells,ELISA / luminescence,,EC50,,71.4 µM
CCc1nc(N)nc(N)c1-c1ccc(Cl)cc1,L929,,0.8 µg/mL,inhibition,Calf isolate,51.78%
CC(C)CN(C[C@@H](O)[C@H](Cc1ccccc1)NC(=O)O[C@H]1CCOC1)S(=O)(=O)c1ccc(N)cc1,HCT-8,,25 µg/mL,inhibition,,5%
NC(=O)c1ncn([C@@H]2O[C@H](CO)[C@@H](O)[C@H]2O)n1,,,100 µg/mL,inhibition,,89%
CC(C)[C@H](NC(=O)[C@H](CCCN=C(N)N)NC(=O)N[C@@H](Cc1ccccc1)C(=O)O)C(=O)N[C@H](C=O)CCCN=C(N)N,,cell count / microscopy,100 µg/mL,inhibition,,57.9%
Nc1ccc(S(=O)(=O)Nc2cnc3ccccc3n2)cc1,L929,,0.8 µg/mL,inhibition,Human isolate,79.49%
COC(=O)c1cc([N+](=O)[O-])c(N2CCN(C)CC2)c([N+](=O)[O-])c1,MDCK cells,ELISA / luminescence,,EC50,,7.2 µM
CC1(C)N=C(N)N=C(N)N1c1ccc(Cl)cc1,L929,,4 µg/mL,inhibition,Calf isolate,22.46%
O=[N+]([O-])c1cc(C(F)(F)F)cc([N+](=O)[O-])c1Nc1ccccc1,MDCK cells,ELISA / luminescence,,EC50,,0.12 µM
CN(C)[C@@H]1C(=O)C(C(N)=O)=C(O)[C@@]2(O)C(=O)C3=C(O)c4c(O)cccc4[C@@](C)(O)[C@H]3[C@H](O)[C@@H]12,L929,,0.032 µg/mL,inhibition,Calf isolate,-2.29%
CCCNc1c([N+](=O)[O-])cc(S(N)(=O)=O)cc1[N+](=O)[O-],MDCK cells,ELISA / luminescence,,EC50,,1.26 µM

The first 2 rows once more:

compound,cell line,read by,dose,read-out,strain or isolate,value
N/C(=N\N=C\c1ccc(Cl)cc1)N/N=C/c1ccc(Cl)cc1,L929,,0.8 µg/mL,inhibition,Human isolate,10.05%
COC(=O)c1cc([N+](=O)[O-])c(N2CCOCC2)c([N+](=O)[O-])c1,MDCK cells,ELISA / luminescence,,EC50,,66.9 µM